The target of this assay is Elongin BC complex (human Elongin B with Elongin C residues 17-122) (human) (UniProt Q15370). Nature of the assay: HDX-MS.

Protein sequences, listed by entry. Tags and fused reporters are not part of them. Lines headed by an entry give the natural chain unless they say otherwise; changes in a name come on top.
UniProt Q15370: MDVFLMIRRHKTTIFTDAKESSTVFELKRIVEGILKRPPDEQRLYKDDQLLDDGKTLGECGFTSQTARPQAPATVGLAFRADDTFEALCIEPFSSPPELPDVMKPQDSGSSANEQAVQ

By Kd is commonly meant the constant that tells how readily two partners part at equilibrium. A higher Kd goes with weaker binding. “HIV-1 Vif (HXB2) residues 135-158 peptide with 6xHis tag” showed a Kd of 230 nM.

(Values after publication PMC2949506.)
